Compound potency records, mixed from different reports. Data source: NIAID ChemDB in PubChem.

Shared fields: cytotoxicity tests; cells: 1A2; method: XTT; read-out: CC50

CCn is the concentration with n% toxicity to the cells. Neighbouring rows are from separate reports.

structure	value
O=C(/C=C/c1ccc(O)c(O)c1)O[C@H]1[C@@H]2C=CO[C@@H](OC3OC(CO)C(O)C(O)C3O)[C@@H]2[C@@]2(CO)O[C@@H]12	154 µM
C=C(CC[C@@H](C)[C@H]1CC[C@@]2(C)C3CCC4C(C)(C)[C@@H](OC(=O)CCCCCCCCCCCCCCC)CC[C@@]45C[C@@]35CC[C@]12C)C(C)(C)O	>125 µg/mL
Fc1cccc(F)c1C1SCc2nc3ccccc3n21	56.8 µM
C=C1C(=O)[C@@]23CCC4[C@@](C)(CCC[C@@]4(C)C(=O)O)C2CC[C@H]1C3	<3.9 µg/mL
O=C(O)/C=C/c1ccc(O)c(O)c1	36.77 µM
C=C(CC[C@@H](C)[C@H]1CC[C@@]2(C)[C@@H]3CC[C@H]4[C@](C)(C(=O)O)[C@@H](O)CC(=O)[C@@]45C[C@@]35CC[C@]12C)C(C)C	18.5 µg/mL
C[C@@]12CCC[C@@](C)(C(=O)O)C1CCC13C=C(CC[C@H]4C(=O)[C@@]56CCC7[C@@](C)(CCC[C@@]7(C)C(=O)O)C5CC[C@H]4C6)[C@H](CCC12)C3	>125 µg/mL
COc1c(OC)c(OC)c(-c2cc(=O)c3c(O)cc(O)cc3o2)c(OC)c1OC	>125 µg/mL
Cc1cn([C@H]2C[C@H](N=[N+]=[N-])[C@@H](CO)O2)c(=O)[nH]c1=O	>10 µM
O=C(O)/C=C/c1ccc(O)cc1	>762 µM
COc1cc(-c2cc(=O)c3c(O)cc(O)cc3o2)c(OC)c(OC)c1OC	>125 µg/mL
COc1ccc(-c2oc3cc(O)cc(O)c3c(=O)c2OC)cc1	5.2 µg/mL
Nc1ccn([C@H]2CC[C@@H](CO)O2)c(=O)n1	>10 µM
C=C(CC[C@@H](C)[C@H]1CC[C@@]2(C)[C@@H]3CC[C@H]4[C@](C)(C(=O)O)[C@@H](O)CC[C@@]45C[C@@]35CC[C@]12C)C(C)C	120.1 µg/mL
CC(=O)O[C@H]1CC[C@]2(C)C3CC=C4C5[C@@H](C)[C@H](C)CC[C@]5(C(=O)O)CC[C@@]4(C)[C@]3(C)CC[C@H]2C1(C)C	39.89 µM
C[C@@]12CCC[C@@](C)(C(=O)O)C1CC[C@@]13C[C@H](CCC12)[C@@](O)(CO)C3	>125 µg/mL

The last 2 rows once more:

{"structure": "CC(=O)O[C@H]1CC[C@]2(C)C3CC=C4C5[C@@H](C)[C@H](C)CC[C@]5(C(=O)O)CC[C@@]4(C)[C@]3(C)CC[C@H]2C1(C)C", "value": "39.89 µM"}
{"structure": "C[C@@]12CCC[C@@](C)(C(=O)O)C1CC[C@@]13C[C@H](CCC12)[C@@](O)(CO)C3", "value": ">125 µg/mL"}